## Sequence variants of PSTVd loop 6 after infection

From the data files of Wu et al. 2024, doi:10.1371/journal.ppat.1012142.

PSTVd intermediate strain, loop 6: wild type UGACCGCGAG, pool pattern UNNNCGNNNG; upper and lower strand joined, each 5' to 3', the first 5 letters being the upper strand, closing pairs included.

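A pool of all variants was put on leaves of three Nicotiana benthamiana plants. Progeny were sequenced from the inoculated region (day 5), the margin of the inoculated leaf (day 10) and systemic leaves (day 12).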

Numbers give reads per thousand; 0 = not seen among the reads, higher = more abundant. Each site shows the three plants. "Pool" is the share in the plasmid pool used as inoculum, on the same scale. The inoculated region was read from the minus strand, the other sites from the plus strand.

{"sequence": "UCCUCGGGGG", "pool": "0.105", "inoculated region": "0.0348 / 0.0898 / 0.0922", "leaf margin": "0 / 0 / 0.0232", "systemic leaves": "0 / 0 / 0"}
{"sequence": "UCCUCGGGUG", "pool": "0.222", "inoculated region": "0.122 / 0.0359 / 0.0738", "leaf margin": "0.0276 / 0 / 0", "systemic leaves": "0 / 0 / 0"}
{"sequence": "UCCUCGGUAG", "pool": "0.196", "inoculated region": "0.0869 / 0.0719 / 0.129", "leaf margin": "0 / 0 / 0", "systemic leaves": "0 / 0 / 0"}
{"sequence": "UCCUCGGUCG", "pool": "0.144", "inoculated region": "0.0869 / 0.0898 / 0.0369", "leaf margin": "0 / 0 / 0.0232", "systemic leaves": "0 / 0 / 0"}
{"sequence": "UCCUCGGUGG", "pool": "0.157", "inoculated region": "0.174 / 0.0898 / 0.0553", "leaf margin": "0.0276 / 0 / 0", "systemic leaves": "0 / 0 / 0"}
{"sequence": "UCCUCGGUUG", "pool": "0.275", "inoculated region": "0.0695 / 0.108 / 0.0553", "leaf margin": "0 / 0 / 0.0232", "systemic leaves": "0 / 0 / 0"}
{"sequence": "UCCUCGUAAG", "pool": "0.105", "inoculated region": "0.0348 / 0.0719 / 0.0922", "leaf margin": "0 / 0 / 0", "systemic leaves": "0 / 0 / 0"}
{"sequence": "UCCUCGUACG", "pool": "0.209", "inoculated region": "0.0869 / 0.108 / 0.111", "leaf margin": "0 / 0 / 0", "systemic leaves": "0 / 0 / 0"}
{"sequence": "UCCUCGUAGG", "pool": "0.196", "inoculated region": "0.0869 / 0.0719 / 0.166", "leaf margin": "0 / 0 / 0", "systemic leaves": "0 / 0 / 0"}
{"sequence": "UCCUCGUAUG", "pool": "0.248", "inoculated region": "0.174 / 0.0719 / 0.0738", "leaf margin": "0.304 / 0 / 0.0232", "systemic leaves": "0 / 0 / 0"}
{"sequence": "UCCUCGUCAG", "pool": "0.248", "inoculated region": "0.0174 / 0.0898 / 0.0738", "leaf margin": "0.0552 / 0 / 0", "systemic leaves": "0 / 0 / 0"}
{"sequence": "UCCUCGUCCG", "pool": "0.261", "inoculated region": "0.0695 / 0.0539 / 0.0738", "leaf margin": "0 / 0 / 0.0232", "systemic leaves": "0 / 0 / 0"}
{"sequence": "UCCUCGUCGG", "pool": "0.366", "inoculated region": "0.191 / 0.0898 / 0.129", "leaf margin": "0 / 0 / 0", "systemic leaves": "0 / 0 / 0"}
{"sequence": "UCCUCGUCUG", "pool": "0.248", "inoculated region": "0.104 / 0.108 / 0.111", "leaf margin": "0 / 0 / 0", "systemic leaves": "0 / 0.0202 / 0"}
{"sequence": "UCCUCGUGAG", "pool": "0.301", "inoculated region": "0.0695 / 0.108 / 0.0738", "leaf margin": "0 / 0 / 0.0232", "systemic leaves": "0 / 0 / 0"}
{"sequence": "UCCUCGUGCG", "pool": "0.209", "inoculated region": "0.0348 / 0.126 / 0.0369", "leaf margin": "0.0276 / 0 / 0", "systemic leaves": "0 / 0 / 0"}
{"sequence": "UCCUCGUGGG", "pool": "0.144", "inoculated region": "0.0695 / 0.0719 / 0.0553", "leaf margin": "0 / 0 / 0", "systemic leaves": "0 / 0 / 0"}
{"sequence": "UCCUCGUGUG", "pool": "0.248", "inoculated region": "0.104 / 0.0898 / 0.129", "leaf margin": "0 / 0 / 0", "systemic leaves": "0 / 0 / 0"}
{"sequence": "UCCUCGUUAG", "pool": "0.405", "inoculated region": "0.0869 / 0.0719 / 0.111", "leaf margin": "0.0276 / 0 / 0", "systemic leaves": "0 / 0 / 0"}
{"sequence": "UCCUCGUUCG", "pool": "0.301", "inoculated region": "0.0521 / 0.0719 / 0.0369", "leaf margin": "0.0276 / 0 / 0", "systemic leaves": "0 / 0 / 0"}
{"sequence": "UCCUCGUUGG", "pool": "0.261", "inoculated region": "0.122 / 0.108 / 0.0922", "leaf margin": "0 / 0 / 0", "systemic leaves": "0 / 0 / 0"}
{"sequence": "UCCUCGUUUG", "pool": "0.327", "inoculated region": "0.0695 / 0.0539 / 0.0553", "leaf margin": "0 / 0 / 0", "systemic leaves": "0 / 0 / 0"}
{"sequence": "UCCUCUGUGG", "pool": "0.0131", "inoculated region": "0 / 0 / 0", "leaf margin": "0 / 0 / 0", "systemic leaves": "0 / 0 / 0"}
{"sequence": "UCCUUGUUUG", "pool": "0.0131", "inoculated region": "0 / 0 / 0", "leaf margin": "0 / 0 / 0", "systemic leaves": "0 / 0 / 0"}
{"sequence": "UCGACGAAAG", "pool": "0.196", "inoculated region": "0.122 / 0.0719 / 0.0738", "leaf margin": "0 / 0 / 0", "systemic leaves": "0 / 0 / 0"}
{"sequence": "UCGACGAACG", "pool": "0.222", "inoculated region": "0.191 / 0.0898 / 0.111", "leaf margin": "0 / 0 / 0.0232", "systemic leaves": "0 / 0 / 0"}
{"sequence": "UCGACGAAGG", "pool": "0.105", "inoculated region": "0.0521 / 0.108 / 0.0738", "leaf margin": "0.0276 / 0 / 0", "systemic leaves": "0 / 0 / 0"}
{"sequence": "UCGACGAAUG", "pool": "0.353", "inoculated region": "0.122 / 0.0180 / 0.0738", "leaf margin": "0.0276 / 0 / 0", "systemic leaves": "0 / 0 / 0"}
{"sequence": "UCGACGACAG", "pool": "0.248", "inoculated region": "0.174 / 0.180 / 0.0922", "leaf margin": "0 / 0 / 0.0232", "systemic leaves": "0 / 0 / 0"}
{"sequence": "UCGACGACCG", "pool": "0.261", "inoculated region": "0.0521 / 0.0898 / 0.0922", "leaf margin": "0 / 0 / 0.0464", "systemic leaves": "0 / 0 / 0"}
{"sequence": "UCGACGACGG", "pool": "0.105", "inoculated region": "0.156 / 0.0539 / 0.0553", "leaf margin": "0 / 0 / 0", "systemic leaves": "0 / 0 / 0"}
{"sequence": "UCGACGACUG", "pool": "0.392", "inoculated region": "0.0695 / 0.0180 / 0.148", "leaf margin": "0 / 0 / 0", "systemic leaves": "0 / 0 / 0"}
{"sequence": "UCGACGAGAG", "pool": "0.170", "inoculated region": "0.122 / 0.0359 / 0.0922", "leaf margin": "0 / 0 / 0.0232", "systemic leaves": "0.0180 / 0.0404 / 0"}
{"sequence": "UCGACGAGCG", "pool": "0.183", "inoculated region": "0.104 / 0.126 / 0.111", "leaf margin": "0 / 0 / 0", "systemic leaves": "0 / 0 / 0"}
{"sequence": "UCGACGAGGG", "pool": "0.248", "inoculated region": "0.0695 / 0.0180 / 0.0738", "leaf margin": "0 / 0 / 0", "systemic leaves": "0 / 0 / 0"}
{"sequence": "UCGACGAGUG", "pool": "0.196", "inoculated region": "0.122 / 0.0898 / 0.0738", "leaf margin": "0.0276 / 0 / 0", "systemic leaves": "0 / 0 / 0"}
{"sequence": "UCGACGAUAG", "pool": "0.288", "inoculated region": "0.174 / 0.216 / 0.111", "leaf margin": "0.0276 / 0 / 0.209", "systemic leaves": "0 / 0 / 0"}
{"sequence": "UCGACGAUCG", "pool": "0.261", "inoculated region": "0.0695 / 0.108 / 0.0369", "leaf margin": "0 / 0 / 0.0232", "systemic leaves": "0 / 0 / 0"}

2 of these entries, quoted again:

- UCCUCGGGUG (pool 0.222): inoculated region 0.122 / 0.0359 / 0.0738; leaf margin 0.0276 / 0 / 0; systemic leaves 0 / 0 / 0
- UCCUCUGUGG (pool 0.0131): inoculated region 0 / 0 / 0; leaf margin 0 / 0 / 0; systemic leaves 0 / 0 / 0

With 36,220-57,551 reads a sample, very low values are single reads. For reference, wild type rose from 20.7 per thousand in the pool to 195, 198, 203 (inoculated region), 629, 591, 734 (leaf margin) and 942, 870, 868 (systemic leaves). The authors trace changes outside the varied positions to PCR and sequencing errors or to mutation in the plant; presence does not show that a variant is infectious alone.